Measured values from several laboratories, pooled; numbers as filed in NIAID ChemDB.

Common to all: tests on isolated targets; organism: HIV-1; protein: Reverse transcriptase; method: nucleotide incorporation / radiometric; measure: IC50

ICn is the concentration giving n% inhibition.

structure,strain or isolate,changes,result
Cc1cn([C@H]2C[C@H](O)[C@@H](COC(=O)C3CCC(C(=O)O)CC3)O2)c(=O)[nH]c1=O,-,-,140 µg/mL
Nc1ncnn2c(COCCP(=O)(O)OP(=O)(O)OP(=O)(O)O)ccc12,-,-,≥0.25 µM
Cc1cc(S(N)(=O)=O)ccc1NC(=O)COc1ccccc1C(=O)c1cc(Cl)cc(C#N)c1,NNRTI-resistant,RT-K103N,0.0046 µM
Cc1cn([C@H]2C[C@H](O)[C@@H](COC(=O)CCCCC(=O)O)O2)c(=O)[nH]c1=O,-,-,80 µg/mL
CCN1c2ncc(CCOc3ccc(/C=C(\C)C(=O)O)c4ccccc34)cc2C(=O)Nc2c(C)cc(Cl)nc21,-,RT-V106A,0.1–1 µM
C[C@H](Cc1ccc2c(N)ncnn12)OCP(=O)(O)OP(=O)(O)OP(=O)(O)O,-,-,<0.05 µM
Nc1ccn([C@@H]2O[C@H](COP(=O)(O)O[C@@H]3[C@H](O)[C@@H](COP(=O)(O)O[C@@H]4[C@H](O)[C@@H](COP(=O)(O)OP(=O)(O)O)O[C@H]4n4ccc(N)nc4=O)O[C@H]3n3ccc(N)nc3=O)[C@@H](O)[C@H]2O)c(=O)n1,-,-,75 µM
O=c1[nH]c(=O)n([C@H]2C[C@H](O)[C@@H](CO)O2)cc1-c1cccs1,-,-,>300 µg/mL
CCN1c2ncc(CCOc3ccc4cc(C(=O)NN)ccc4c3)cc2C(=O)N(C)c2cccnc21,-,RT-V106A,<0.1 µM
Nc1ncnc2c(CC3(OCP(=O)(O)OP(=O)(O)OP(=O)(O)O)CC3)cnn12,-,-,0.05–0.25 µM
O=C(CSc1nnnn1-c1ccccc1-c1ccccc1)Nc1ccccc1Cl,-,-,<2 µM
C[C@@H](Cc1cnn2c(N)ncnc12)OCP(=O)(O)OP(=O)(O)OP(=O)(O)O,-,-,<0.05 µM
O=C(O)C1CCC(C(=O)OC[C@H]2O[C@@H](n3cc(-c4cccs4)c(=O)[nH]c3=O)C[C@@H]2O)CC1,-,-,140 µg/mL
O=C(CSc1nnnn1-c1cccc2cnccc12)Nc1ccccc1Cl,-,-,<2 µM
COc1cc(O)c2c(=O)cc(-c3ccc(Oc4cc(-c5cc(=O)c6c(O)cc(O)cc6o5)ccc4O)cc3)oc2c1,-,-,2 µg/mL
O=C(CCSc1nnnn1-c1cccc2ccccc12)Nc1ccccc1[N+](=O)[O-],-,-,<2 µM
Nc1ncnc2c1ncn2[C@@H]1O[C@H](COP(=O)(O)O[C@@H]2C[C@@H](COP(=O)(O)O[C@@H]3[C@H](O)[C@@H](CO)O[C@H]3n3cnc4c(N)ncnc43)O[C@H]2n2cnc3c(N)ncnc32)[C@@H](O)[C@H]1O,-,-,160 µM
CCN1c2ncc(CCOc3ccc(C(=O)O)c4c3CCCC4)cc2C(=O)N(C)c2ccc(OC)nc21,-,RT-K103N Y181C,0.1–1 µM
COC(=O)c1sccc1NC(=O)CSc1nnnn1-c1c(C)cc(C)cc1C,-,-,<2 µM
CCN1c2ncc(CCOc3ccc(CC(=O)O)c4ccccc34)cc2C(=O)N(C)c2cccnc21,-,RT-Y188L,>1 µM
COc1ccc(-c2coc3cc4c(c(OC)c3c2=O)OCO4)cc1OC,-,-,>200 µg/mL
Nc1ncnc2c1ncn2[C@@H]1C[C@H](COP(=O)(O)OP(=O)(O)OP(=O)(O)O)C2CC21,-,-,36.39 µg/mL
Cc1ccc(-n2nnnc2SCC(=O)Nc2ccccc2Cl)c([N+](=O)[O-])c1,-,-,<2 µM
O=c1[nH]c(=O)n([C@H]2C[C@H](O)[C@@H](COP(=O)(O)OP(=O)(O)OP(=O)(O)O)O2)cc1-c1cccs1,-,-,0.13 µg/mL
C/C(=C\CC/C(C)=C/CCc1ccoc1)C/C=C/C1=CCC(=O)OC1,-,-,5.6 µM
C=CCO/N=C/c1cc(NC(=S)c2ccoc2C)ccc1Cl,-,RT-P236L,6 µM
Cc1cc(C)c(-n2nnnc2SCC(=O)Nc2ccccc2N)c(C)c1,-,-,<2 µM
CC(C)=CCc1c(O[C@@H]2O[C@H](CO)[C@@H](O)[C@H](O)[C@H]2O)cc2c(c1O)C(=O)[C@H](O)[C@@H](c1ccc(O)c(O)c1)O2,-,-,>200 µg/mL
Cc1occc1C(=S)Nc1ccc(Cl)c(C(=O)OCC2CC2)c1,-,RT-L100I,>50 µM
CC(Cc1ccc2c(=O)[nH]cnn12)OCP(=O)(O)OP(=O)(O)OP(=O)(O)O,-,-,≥0.25 µM
COc1c(N2CCN(CN3C(=O)C(=Nc4ccc(S(=O)(=O)Nc5nc(C)cc(C)n5)cc4)c4cc(F)ccc43)C(C)C2)c(F)cc2c(=O)c(C(=O)O)cn(C3CC3)c12,-,-,18.4 µM
Cc1cc(C)c(-n2nnnc2SCC(=O)Nc2ccc(S(N)(=O)=O)cc2C)c(C)c1,-,-,<2 µM
Nc1ncnn2c(CCOCP(=O)(O)OP(=O)(O)OP(=O)(O)O)ccc12,-,-,<0.05 µM
Cc1ccc(-n2nnnc2SCC(=O)Nc2ccccc2Cl)cc1,-,-,<2 µM
C[C@H](Cc1nnc2c(N)ncnn12)OCP(=O)(O)OP(=O)(O)OP(=O)(O)O,-,-,≥0.25 µM

Again, the opening 2 rows:

| structure | strain or isolate | changes | result |
|---|---|---|---|
| Cc1cn([C@H]2C[C@H](O)[C@@H](COC(=O)C3CCC(C(=O)O)CC3)O2)c(=O)[nH]c1=O | - | - | 140 µg/mL |
| Nc1ncnn2c(COCCP(=O)(O)OP(=O)(O)OP(=O)(O)O)ccc12 | - | - | ≥0.25 µM |

Two numbers with a dash give a range or band. Blank or dashed fields: not listed here. Conditions beyond the fields shown may differ between rows.